Biological target: SARS-CoV-2 wild-type RBD (SARS-CoV-2) (UniProt P0DTC2)
Assay: BLI

For LY-CoV555, the koff was 0.000558 s⁻¹.

From PMC8866119
